A mixed list of measured activities; the numbers were collected in NIAID ChemDB.

All rows: toxicity to cultured cells; cells: HUMAN SPERM; endpoint: CC50

Lines come from different laboratories, so protocols vary.

structure | value
COC(=O)[C@H](Cc1ccccc1)NP(=O)(OC[C@H]1O[C@@H](N2C(=O)NC(=O)C(C)(Br)C2OC)C[C@@H]1N=[N+]=[N-])Oc1ccc(Br)cc1 | 300 µM
S=C(NCCc1ccccn1)Nc1ccc(Br)cn1 | >300 µM
S=C(NCCc1ccccc1)Nc1ccc(Br)cn1 | 361 µM
Fc1ccccc1CCNC(=S)Nc1ccc(Br)cn1 | 70 µM
COC(=O)[C@H](C)NP(=O)(OC[C@H]1O[C@@H](N2C(=O)NC(=O)C(C)(Br)C2OC)C[C@@H]1N=[N+]=[N-])Oc1ccc(Br)cc1 | 4.82 µM
Fc1ccc(CCNC(=S)Nc2ccc(Br)cn2)cc1 | >500 µM
CCCCCCCCCc1ccc(OCCOCCOCCOCCOCCOCCOCCOCCOCCO)cc1 | 81 µM
S=C(NCCN1CCNCC1)Nc1ccc(Br)cn1 | >500 µM
COC(=O)[C@H](C)NP(=O)(OC[C@H]1O[C@@H](n2cc(C)c(=O)[nH]c2=O)C[C@@H]1N=[N+]=[N-])Oc1ccc(Br)cc1 | 300 µM
Cc1ccc(CCNC(=S)Nc2ccc(Br)cn2)cc1 | >500 µM
COC(=O)[C@H](C)NP(=O)(OC[C@H]1O[C@@H](N2C(=O)NC(=O)C(C)(Br)C2OC)C[C@@H]1N=[N+]=[N-])Oc1ccc(F)cc1 | 15 µM
S=C(NCCC1=CCCCC1)Nc1ccc(Br)cn1 | 42 µM
S=C(NCCC1=CCCCC1)Nc1ccc(Br)cn1 | 42 µM
CCCCCCCCCc1ccc(OCCOCCOCCOCCOCCOCCOCCOCCOCCO)cc1 | 76 µM
COC(=O)[C@H](C)NP(=O)(OC[C@H]1O[C@@H](n2cc(C)c(=O)[nH]c2=O)C[C@@H]1N=[N+]=[N-])Oc1ccc(Br)cc1 | >300 µM
COC(=O)[C@H](Cc1c[nH]c2ccccc12)NP(=O)(OC[C@H]1O[C@@H](N2C(=O)NC(=O)C(C)(Br)C2OC)C[C@@H]1N=[N+]=[N-])Oc1ccc(Br)cc1 | 20 µM
CSCSc1nc(Cc2ccccc2)c(C(C)C)c(=O)[nH]1 | 202 µM
FC(F)(F)c1ccc(NC(=S)NCCC2=CCCCC2)nc1 | 131 µM
COC(=O)[C@H](C)NP(=O)(OC[C@H]1O[C@@H](N2C(=O)NC(=O)C(C)(Br)C2OC)C[C@@H]1N=[N+]=[N-])Oc1ccc(Br)cc1 | >6 µM
COC(=O)[C@H](C)NP(=O)(OC[C@H]1O[C@@H](N2C(=O)NC(=O)C(C)(Br)C2OC)C[C@@H]1N=[N+]=[N-])Oc1ccccc1 | 35 µM
COC(=O)[C@H](Cc1c[nH]c2ccccc12)NP(=O)(OC[C@H]1O[C@@H](N2C(=O)NC(=O)C(C)(Br)C2OC)C[C@@H]1N=[N+]=[N-])Oc1ccc([N+](=O)[O-])cc1 | 39 µM
COc1ccccc1CCNC(=S)Nc1ccc(Br)cn1 | >500 µM

Again, the opening 2 rows:

COC(=O)[C@H](Cc1ccccc1)NP(=O)(OC[C@H]1O[C@@H](N2C(=O)NC(=O)C(C)(Br)C2OC)C[C@@H]1N=[N+]=[N-])Oc1ccc(Br)cc1 ; value: 300 µM
S=C(NCCc1ccccn1)Nc1ccc(Br)cn1 ; value: >300 µM

CCn: concentration that lowers growth or viability of the cells by n%.